Experimental data as given in PMC7178511, “Antimicrobial Activity and DNA/BSA Binding Affinity of Polynuclear Silver(I) Complexes with 1,2-Bis(4-pyridyl)ethane/ethene as Bridging Ligands” (Bioinorganic Chemistry and Applications, 2020).

Assays:
[1] = system: calf thymus DNA (ctDNA); assay: UV-Vis spectrophotometric titration with ctDNA; type: binding; details: ΔG = -RTlnKb
[2] = system: calf thymus DNA (ctDNA); assay: Competitive EthBr-DNA fluorescence binding experiment; details: Fluorescent titration, pH 7.4
Method: The competitive DNA-silver(I) complex binding experiments were carried out in the buffer (pH 7.4) by maintaining [DNA]/[EthBr] = 5, while increasing the concentration of the complexes 1–3. Each sample solution was scanned in the wavelength range 525–800 nm with an excitation wavelength of 520 nm. The Stern-Volmer constants (Ksv), which represent a measure of the binding propensity of the complexes to DNA, were calculated using the following equation [29]:(2) F0/F=1+Kqτ0complex=1+Ksvcomplex, where F0 and F are the fluorescence intensities in the absence and presence of the complexes, respectively. Kq stands for bimolecular quenching constant and τ0 (10^−8 s) is the lifetime of the fluorophore in the absence of the quencher. The binding constants (KA) and apparent binding sites (n) can be calculated by using the following equation [28]:(3) logF0−F/F=log KA+n logcomplex, where KA stands for the binding constant of the silver(I) complex with ctDNA and n stands for the apparent number of binding sites.

SMILES | ΔG^o [1] | n (apparent number of binding sites) [2]
O=[N+]([O-])[O-].[Ag+].c1cc(CCc2ccncc2)ccn1 [Complex 1, {[Ag(bpa)]NO3}n] | -7.9 kcal/mol | 1.40
O.O=S(=O)([O-])C(F)(F)F.[Ag+].c1cc(CCc2ccncc2)ccn1.c1cc(CCc2ccncc2)ccn1 [Complex 2, {[Ag(bpa)2]CF3SO3^.H2O}n] | -7.7 kcal/mol | 0.80
C(=C\c1ccncc1)/c1ccncc1.O=S(=O)([O-])C(F)(F)F.[Ag+] [Complex 3, {[Ag(bpe)]CF3SO3}n] | -7.8 kcal/mol | 0.72
